Experimental data as given in patent US20210261650A1.

Target: SARS-CoV-2 Spike (S) protein on pseudotyped virus or live SARS-CoV-2 (SARS-CoV-2 (BetaCoV/Wuhan-Hu-1/2019 for the pseudotypes; USA-WA1/2020 for live virus in paragraph 846)) (UniProt P0DTC2)
Assay: cell-based or functional assay

## S309 N55Q MLNS GAALIE (antibody)
  EC50, neutralization of live SARS-CoV-2 virus infection: 0.0783 µg/mL
  EC50, neutralization of pseudotyped virus: 0.0221 µg/mL
